A mixed list of measured activities; the numbers were collected in NIAID ChemDB.

Common to all: growth or infection tests; species: Mycobacterium tuberculosis

Percent inhibition refers to the dose given; in toxicity tests it is the harm to the cells.

SMILES,measure,cells,method,changes,dose,strain or isolate,result
CCCCCCCCCCCCCCCCNC(CCO)C1OC2OC(C)(C)OC2[C@@H]1OC,MIC,-,-,-,-,H37Ra,6.25 µg/mL
CCOC(=O)Nc1cc2c(c(N)n1)N=C(CN(C)c1ccccc1)CN2,inhibition,-,resazurin,-,6.25 µg/mL,H37Rv,34%
COc1nc2ccc(Br)cc2cc1[C@@H](c1ccccc1)[C@@](O)(CCN(C)C)c1cccc2ccccc12,MIC90,-,resazurin,-,-,H37Rv,0.0625 µg/mL
COc1ccc2c(c1)c(-c1cc3ccccc3oc1=O)cn2C(=O)c1ccc(Cl)cc1,inhibition,-,BACTEC,-,6.25 µg/mL,H37Rv,36%
COc1nc2ccc(Br)cc2cc1[C@@H](c1ccccc1)[C@@](O)(CCN(C)C)c1cccc2ccccc12,MIC80,-,broth dilution,Streptomycin-resistant,-,35820,<2 µM
Nc1ccc2c(c1)S(=O)(=O)c1cc(O)ccc1O2,inhibition,-,BACTEC,-,12.5 µg/mL,H37Rv,20%
NC(=O)c1cccc2c(=O)c3ccccc3oc12,inhibition,-,-,-,32 µg/mL,H37Rv,inactive
CNC(=O)OCc1cnc2ccc(OC)cc2c1COC(=O)NC,inhibition,-,BACTEC,-,12.5 µg/mL,H37Rv,24%
Cc1c([N+](=O)[O-])cc2c(=O)c3cc([N+](=O)[O-])ccc3oc2c1C,inhibition,-,-,-,4 µg/mL,H37Rv,inactive
Cc1cn2c(C(=O)NCc3ccc(N4CCN(c5ccc(C(F)(F)F)cn5)CC4)c(F)c3)c(C)nc2s1,MIC,-,resazurin / fluorescence,QcrB4 A396T,-,H37Rv,<0.024 µM
CO[C@H]1/C=C/O[C@@]2(C)Oc3c(C)c(O)c4c(O)c(c(N=CN5CCCC5)c(O)c4c3C2=O)NC(=O)/C(C)=C\C=C\[C@H](C)[C@H](O)[C@@H](C)[C@@H](O)[C@@H](C)[C@H](OC(C)=O)[C@@H]1C,MIC,-,-,-,-,H37Rv,0.0012 µg/mL
O=C([C@@H](O)CO)N1CC=C(c2c(F)cc(N3C[C@H](COc4ccon4)OC3=O)cc2F)CC1,MIC,-,broth dilution,-,-,H37Rv (ATCC 25618),0.5 µg/mL
Cc1cnc(/C=N/NC(N)=S)cn1,MIC,-,-,-,-,CS-R,12.5 µg/mL
CCN(CC)CCNC(=O)c1cc(Cl)cc([N+](=O)[O-])c1,MIC,-,-,-,-,N73,50 µg/mL
N/C(=N/N=C/c1cccc(Br)c1)c1ccccn1,MIC,-,-,-,-,1814 (THC-resistant),16 µg/mL
N#C/C(=C\c1ccc(F)c(F)c1)n1nnc2ccccc21,MIC90,-,-,-,-,ATCC 27294,>100 µM
Cc1occc1C(=S)Nc1ccc(Cl)c(OCC(=O)OC(C)(C)C)c1,inhibition,-,BACTEC,-,12.5 µg/mL,H37Rv,52%
Cc1cc(C2=NNC(c3ccccc3Cl)C2)ccc1O,MIC,-,-,-,-,H37Rv,>6.25 µg/mL
Cc1cc(=O)n2nc(CSc3n[nH]c(=S)s3)sc2n1,MIC bound,-,resazurin,-,-,H37Rv,>6.25 µg/mL
COc1ccc(C2CC(c3ccc(O)c(C)c3)=NN2)cc1OC,MIC,-,-,-,-,H37Rv,>6.25 µg/mL
CO[C@H]1/C=C/O[C@@]2(C)Oc3c(C)c(O)c4c(O)c(c5[nH]c(N6CCCCCC6)nc5c4c3C2=O)NC(=O)/C(C)=C\C=C\[C@H](C)[C@H](O)[C@@H](C)[C@@H](O)[C@@H](C)[C@H](OC(C)=O)[C@@H]1C,MIC,-,-,-,-,H37Rv,0.01 µg/mL
N#C/C(=C\c1ccc(C(F)(F)F)cc1C(F)(F)F)n1nnc2ccccc21,MIC50,-,-,-,-,ATCC 27294,9.3 µM
CCCN(CC(=O)OCC)c1nc2c([nH]1)c1c(O)c3c(O)c(C)c4c(c32)C(=O)[C@@](C)(O/C=C/[C@H](OC)[C@@H](C)[C@@H](OC(C)=O)[C@H](C)[C@H](O)[C@H](C)[C@@H](O)[C@@H](C)/C=C/C=C(/C)C(=O)N1)O4,MIC,-,-,-,-,H37Rv,0.04 µg/mL
CCOC(=O)c1[nH]c2ccc(O)c3c2c1CCC3=O,MIC bound,-,BACTEC,-,-,H37Rv,>12.5 µg/mL
CCN(CC)CCNC(=O)c1ccc([N+](=O)[O-])cc1,MIC,-,-,-,-,H37Rv,50 µg/mL
Cc1cc(C(=O)/C=C/c2cccc([N+](=O)[O-])c2)ccc1O,inhibition,-,-,-,6.25 µg/mL,H37Rv,65%
CN[C@@H]1[C@H](O[C@H]2[C@H](O[C@H]3[C@H](O)[C@@H](O)[C@H](N=C(N)N)[C@@H](O)[C@@H]3N=C(N)N)O[C@@H](C)[C@]2(O)C=O)O[C@@H](CO)[C@H](O)[C@H]1O,MIC,-,broth dilution,-,-,CDC1551,0.25 µg/mL
N#C/C(=C/c1ccccc1[N+](=O)[O-])n1nnc2ccccc21,MIC90,-,-,-,-,ATCC 27294,>100 µM
Cc1ccc(S(=O)(=O)N2CCCN(S(=O)(=O)c3ccc(C)cc3)CCSCCCSCC2)cc1,MIC bound,-,resazurin,-,-,H37Rv,>6.25 µg/mL
O=C(O)c1cccc2oc3ccccc3c(=O)c12,inhibition,-,-,-,32 µg/mL,H37Rv,inactive
COc1cccc(CNC(=O)c2c(C)nc3sc(C)cn23)c1,MIC,-,luminescence,-,-,H37Rv,>100 µM
NC(=S)c1cccnc1,MIC,-,-,-,-,H37Rv (drug-susceptible),512–1024 µM
CCCCCCCCCCCCCCCCCCC1OC2OC(C)(C)OC2[C@@H]1OCc1ccccc1,MIC,-,-,-,-,H37Rv,<12.5 µg/mL
Cc1cn2c(C(=O)NCc3ccc(C(F)(F)F)cc3)c(C)nc2s1,MIC,-,resazurin / fluorescence,-,-,H37Rv,0.061 µM
CC(C)=CCOc1c2ccoc2cc2oc(=O)ccc12,MIC100,-,resazurin,Isoniazid-resistant,-,H37Rv clinical isolate CRY5,200 µg/mL
NNC(=O)c1ccncc1,MIC,-,-,T460C Cys154Arg,-,linezolid resistant 8.1,0.06 µg/mL
CCCN(Cc1ccccc1)c1nc2c([nH]1)c1c(O)c3c(O)c(C)c4c(c32)C(=O)[C@@](C)(O/C=C/[C@H](OC)[C@@H](C)[C@@H](OC(C)=O)[C@H](C)[C@H](O)[C@H](C)[C@@H](O)[C@@H](C)/C=C/C=C(/C)C(=O)N1)O4,MIC,-,-,-,-,H37Rv,0.02 µg/mL
COc1ccc(/C=C/C(=O)c2ccc(O)c(C)c2)cc1,inhibition,-,-,-,6.25 µg/mL,H37Rv,72%
O=C1C[C@@H](c2ccccc2)Oc2cc(O)cc(O)c21,inhibition,-,BACTEC,-,12.5 µg/mL,H37Rv,3%
N/C(=N/N=C/c1cccc(F)c1)c1ccccn1,MIC,-,-,-,-,1814 (THC-resistant),125 µg/mL
N#C/C(=C\c1ccccc1F)n1nnc2ccccc21,MIC50,-,-,-,-,ATCC 27294,47.2 µM
C/C=c1\[nH]c(=O)/c(=C/c2ccccc2)[nH]c1=O,MIC,-,BACTEC,-,-,H37Rv,≥12.5 µg/mL
CO[C@H]1/C=C/O[C@@]2(C)Oc3c(C)c(O)c4c(c3C2=O)C(=O)C(N=CN2CCCCCC2)=C(NC(=O)/C(C)=C\C=C\[C@H](C)[C@H](O)[C@@H](C)[C@@H](O)[C@@H](C)[C@H](OC(C)=O)[C@@H]1C)C4=O,MIC,-,-,-,-,H37Rv,0.0012 µg/mL
CCCCCCCNC(CCO)[C@H]1OC2OC(C)(C)OC2C2OC(C)(C)OC21,MIC,-,-,-,-,H37Ra,>100 µg/mL
CCNc1cc2sc3cc(=[NH+]CC)c(C)cc-3nc2cc1C,MIC bound,-,BACTEC,-,-,H37Rv,>12.5 µg/mL
CCN(CC)CCNC(=O)c1cc([N+](=O)[O-])cc([N+](=O)[O-])c1,MIC,-,-,-,-,N353,5 µg/mL
C[C@]1(COc2ccc(N3CCC(Oc4ccc(OC(F)(F)F)cc4)CC3)cc2)Cn2cc([N+](=O)[O-])nc2O1,MIC,-,-,-,-,TU-26,0.012 µg/mL
CC1COc2c(N3CCN(C)CC3)c(F)cc3c(=O)c(C(=O)O)cn1c23,MIC80,-,broth dilution,Ofloxacin-resistant,-,12119,>5.6 µM
CCCCCCCCCCCCC1OC2OC(C)(C)OC2[C@@H]1OCc1ccccc1,MIC,-,-,-,-,H37Rv,<12.5 µg/mL
Cc1cc(C2=NNC(c3ccc(Cl)cc3)C2)ccc1O,MIC,-,-,-,-,H37Rv,>6.25 µg/mL
CCCCCCCCCCCCCCCCNC[C@H]1OC2OC(C)(C)OC2C2OC(C)(C)OC21,MIC,-,-,-,-,H37Ra,25 µg/mL
O=c1cc(CO)oc2c3c(cc(O)c12)OCC(COC1OC(CO)C(O)C(O)C1O)=CC3,MIC,-,BACTEC,-,-,H37Rv,≥12.5 µg/mL
CCc1cc(C(N)=S)ccn1,MIC,-,-,-,-,H37Rv (INH-resistant),256–512 µM
CCCCCCCCCCCCCCCCCCNC(CCO)[C@H]1OC2OC(C)(C)OC2C2OC(C)(C)OC21,MIC,-,-,-,-,H37Rv,6.25 µg/mL
N#C/C(=C\c1ccc(C#N)cc1)n1nnc2ccccc21,MIC90,-,-,-,-,ATCC 27294,>100 µM
CO[C@H]1/C=C/O[C@@]2(C)Oc3c(C)c(O)c4c(O)c(c5[nH]c(N6CCCCC6)nc5c4c3C2=O)NC(=O)/C(C)=C\C=C\[C@H](C)[C@H](O)[C@@H](C)[C@@H](O)[C@@H](C)[C@H](OC(C)=O)[C@@H]1C,MIC,-,-,-,-,H37Rv,0.005 µg/mL
CC1(C)OC2O[C@H](C(CCO)NC3CCCCC3)C3OC(C)(C)OC3C2O1,MIC,-,-,-,-,H37Ra,>100 µg/mL
COc1ccc2c(C)cc(NN)nc2c1,inhibition,-,BACTEC,-,12.5 µg/mL,H37Rv,43%
C=C(C)/C=C/[C@]12C[C@H](C)[C@H]3CC[C@](C)(NC=O)[C@@H](CC[C@H]1C)[C@@H]32,inhibition,-,-,-,8 µg/mL,H37Rv,17%
Cc1cc(C2=NNC(c3c(Cl)cccc3Cl)C2)ccc1O,inhibition,-,-,-,6.25 µg/mL,H37Rv,83%
CCCCCCCCCCC[C@@H]1CCC[C@@H](C)N1,MIC,-,-,-,-,PZA-R,12.8 µg/mL
CNc1ccc(C(N)=S)cc1,MIC,-,-,-,-,H37Rv (INH-resistant),32 µM
CCCCCCCC/C=N/NC(=O)C(=O)N/N=C/CCCCCCCC,inhibition,-,BACTEC,-,12.5 µg/mL,H37Rv,19%
CO[C@H]1/C=C/O[C@@]2(C)Oc3c(C)c(O)c4c(O)c(c5c(c4c3C2=O)NC2(CCN(CC(C)C)CC2)N=5)=NC(=O)/C(C)=C\C=C\[C@H](C)[C@H](O)[C@@H](C)[C@@H](O)[C@@H](C)[C@H](OC(C)=O)[C@@H]1C,MIC,-,-,-,-,Isolate 910328 rifampicin-resistant,16 µg/mL
N/C(=N/N=C/c1ccccc1Cl)c1ccccn1,MIC,-,-,-,-,1814 (THC-resistant),16 µg/mL
CC(C)OCC1(c2ccccc2)C(=O)N(C)C(=O)N1C,MIC bound,-,BACTEC,-,-,H37Rv,>12.5 µg/mL
COC(=O)c1cc2oc3ccc([N+](=O)[O-])cc3c(=O)c2cc1[N+](=O)[O-],inhibition,-,-,-,4 µg/mL,H37Rv,inactive
O=C(c1ccccc1)c1c(CO[N+](=O)[O-])n([O-])c2ccccc2[n+]1=O,MIC,-,-,-,-,EMB-R,12.5 µg/mL
CO[C@H]1/C=C/O[C@@]2(C)Oc3c(C)c(O)c4c(O)c(c(/C=N/N5CCN(C)CC5)c(O)c4c3C2=O)NC(=O)/C(C)=C\C=C\[C@H](C)[C@H](O)[C@@H](C)[C@@H](O)[C@@H](C)[C@H](OC(C)=O)[C@@H]1C,MIC80,-,broth dilution,31f (604276) resistant,-,-,0.004 µM
Cc1ccc(/C=N/N=C(/N)c2ccccn2)cc1,MIC,-,-,-,-,1814 (THC-resistant),32 µg/mL
COc1cc2c(c(NC(C)CCCN=C(N)NC(N)=NC(C)C)c1)NCCC2,MIC,VERO,-,-,-,H37Rv,6.25 µg/mL
COc1ccccc1/C=N/N=C(/N)c1ccccn1,MIC,-,-,-,-,H37Rv,16 µg/mL
N#C/C(=C\c1cc(F)cc(F)c1)n1nnc2ccccc21,MIC50,-,-,-,-,ATCC 27294,56.9 µM
O=C(O)c1cccc2c(=O)c3ccccc3oc12,inhibition,-,-,-,32 µg/mL,H37Rv,inactive
NC(=S)c1ccccn1,MIC,-,-,-,-,H37Rv (drug-susceptible),256 µM
CO[C@@H]1C(C(CCO)NCCCCCCCC/C=C/CCCCCCCCN)OC2OC(C)(C)OC21,MIC,-,-,-,-,H37Rv,25 µg/mL
CO[C@H]1/C=C/O[C@@]2(C)Oc3c(C)c(O)c4c(O)c(c5[nH]c(N6CCOCC6)nc5c4c3C2=O)NC(=O)/C(C)=C\C=C\[C@H](C)[C@H](O)[C@@H](C)[C@@H](O)[C@@H](C)[C@H](OC(C)=O)[C@@H]1C,MIC,-,-,-,-,H37Rv,0.005 µg/mL
O=C(O)c1c([N+](=O)[O-])cc2c(=O)c3cc([N+](=O)[O-])ccc3oc2c1C(=O)O,inhibition,-,-,-,32 µg/mL,H37Rv,inactive
Cc1ccc(/C=N/N=C(/N)c2ccccn2)c(C)c1,MIC,-,-,-,-,1454 (THC-resistant),125 µg/mL
Cn1cc(NC(=O)c2cc(NC(=O)CCCCCCCC(=O)Nc3cc(C(=O)Nc4cc(C(=O)NCCC(N)=[NH2+])n(C)c4)n(C)c3)cn2C)cc1C(=O)NCCC(N)=[NH2+],inhibition,-,BACTEC,-,12.5 µg/mL,H37Rv,99%
Cc1cn2c(C(=O)NCc3ccc(N4CCOCC4)c(F)c3)c(C)nc2s1,MIC,-,resazurin / fluorescence,QcrB5 M342I,-,H37Rv,1.2 µM
O=C(O)c1ccc2c(=O)c3ccccc3oc2c1,inhibition,-,-,-,32 µg/mL,H37Rv,inactive

A number after MIC or MFC names an inhibition level or a share of isolates. MIC bound comes from a single tested concentration. Conditions beyond the fields shown may differ between rows. An empty or dashed field is not shown. For "inactive" no cut-off is given. Two numbers with a dash give a range or band.